Results: BindingDB's records for 9406595

Target: Neuraminidase (Influenza A virus (strain A/Tern/Australia/G70C/1975 H11N9), UniProt P03472)
Assay: ASSAY_NAME: Neuraminidase Inhibition Assay DESCRIPTION: A standard fluorimetric assay was used to measure influenza virus neuraminidase activity. The substrate 2 -(4-methylumbelliferyl)-alpha-D-acetylneuraminic acid is cleaved by neuraminidase to yield a fluorescent product that can be quantified. Fluorescence was read using an Aminco-Bowman fluorescence spectrophotometer (excitation, 360 nm; emis
Details: pH 6.5

NC(N)=Nc1cccc(C(=O)O)c1
IC50: 5 mM

NS(=O)(=O)c1ccc(C(=O)O)cc1
IC50: 2.5 mM

O=C(O)c1ccc(NC(=O)c2ccccc2)cc1
IC50: 1.5 mM

N#CNc1cccc(C(=O)O)c1
IC50: 4 mM

NC(N)=Nc1cc(N=C(N)N)cc(C(=O)O)c1
IC50: 1.5 mM

CS(=O)(=O)Nc1ccc(C(=O)O)cc1NC(=N)N
IC50: 0.1 mM

N=C(N)Nc1cc(N)cc(C(=O)O)c1
IC50: 2 mM

CC(C)C(=O)Nc1ccc(C(=O)O)cc1N=C(N)N
IC50: 1 mM

CS(=O)(=O)Cc1ccc(C(=O)O)cc1NC(=N)N
IC50: 0.3 mM

CC(=O)Nc1ccc(C(=O)O)cc1CC[N+](=O)[O-]
IC50: 2.5 mM

NC(N)=Nc1cc(C(=O)O)ccc1S(N)(=O)=O
IC50: 0.009 mM

NC(N)=Nc1cc(CN=O)cc(C(=O)O)c1
IC50: 0.5 mM

C[S+]([O-])Cc1ccc(C(=O)O)cc1N=C(N)N (stereo not given)
IC50: 0.14 mM

CC(=O)Nc1ccc(C(=O)O)cc1CN=O
IC50: 5.5 mM

CNC(=O)c1ccc(C(=O)O)cc1NC(=N)N
IC50: 0.005 mM
